# Experimental data: US20060165722A1 (priority 2005, published 2006)
# Tested on: tetanus toxin
# Assay: Survival of intranasally immunized mice to Tetanus Toxin challenge
# Type: in vivo
# Details: four weekly intranasal doses TT 1 μg/dose, AT1002 30 μg/dose; s.c. challenge 2 months later with DP50 tetanus toxin; monitored one week
substance,measurement,value
Tetanus toxoid,No. of survivors/No. of mice,0/7
